Measured values reported in patent publication US9974771B2 (priority 2016, dated 2018).

What was measured:
[1] = system: prion conversion activity in ScN2a cells (recombinant mouse PrP substrate); experiment: RT-QuIC prion conversion activity of lysates of long-term treated ScN2a cells; conditions: FIG. 6B
[2] = system: prion conversion activity in ScMEF cells (recombinant mouse PrP substrate); experiment: RT-QuIC prion conversion activity of lysates of long-term treated ScMEF cells; conditions: AR-12 3 μM, tested until passage five after drug withdrawal, FIG. 6D

## NCC(=O)Nc1ccc(-n2nc(C(F)(F)F)cc2-c2ccc3c(ccc4ccccc43)c2)cc1 [AR-12, 2-amino-N-(4-(5-(phenanthren-2-yl)-3-(trifluoromethyl)-1H-pyrazol-1-yl)phenyl)acetamide]
[1]; AR-12 3 μM, tested until passage five after drug withdrawal
  prion conversion activity (RT-QuIC): lost prion conversion activity
[2]
  prion conversion activity (RT-QuIC): lost prion conversion activity

## NCCCC[C@H](N)C(=O)Nc1ccc(-n2nc(C(F)(F)F)cc2-c2ccc3c(ccc4ccccc43)c2)cc1 [AR-14]
[1]; AR-14 2 μM, until passage five after drug withdrawal
  prion conversion activity (RT-QuIC): prion conversion activity is lost
